A mixed list of measured activities; the numbers were collected in NIAID ChemDB.

Common to all: whole-cell or culture tests; species: HIV-1; read-out: fold resistance

Conditions beyond the fields shown may differ between rows. Fold resistance has wild type as its base. a–b is a range or a potency band. Blank or dashed fields: not listed here.

smiles,cells,mutations,method,strain or isolate,result
CC(C)OC(=O)c1cc(NC(=S)SC(C)C)ccc1Cl,CEM,RT-L100I,syncytia,,>1.54
Cc1ccsc1C(=S)Nc1ccc(Cl)c(/C=N/OC(C)C)c1,CEM + CEM-SS,RT-T139I,cytopathic effect / XTT,CALO(RT-T139I),1.43
N#Cc1cc(Cl)cc(Oc2c(Br)ccc(CC(=O)Nc3ccc(S(N)(=O)=O)cc3Cl)c2F)c1,MT-4,M230L,,,<1
CCC(C)OC(=O)c1cc(NC(=S)OC(C)C)ccc1Cl,CEM,RT-Y181C,syncytia,,42.2
CCN1c2ncc(CCOc3ccc(C(=O)O)c4c3CCCC4)cc2C(=O)N(C)c2ccc(F)nc21,C8166,RT-K103N Y181C,p24,,1
Cc1occc1C(=S)Nc1ccc(Cl)c(C(=O)OCC2CC2)c1,CEM + CEM-SS,RT-L100I,cytopathic effect / XTT,NL4-3,22
CC1=C(C(=O)Nc2ccc(Cl)c(OCC=C(Cl)Cl)c2)SCCO1,CEM,RT-E138K,syncytia,TSAO-m3T-resistant (RT E138K),1.67
CCCOC(=O)c1cc(NC(=S)OC(C)C)ccc1Cl,CEM,RT-V106A,syncytia,,80.2
Cc1cc(C)cc(C(=O)c2cc(Cl)ccc2OCC(=O)Nc2ccc(S(N)(=O)=O)cc2C)c1,MT-4,RT-Y181C,cytopathic effect / propidium iodide,Nevirapine-resistant (RT Y181C),~1
CCN1c2ncc(CCOc3ccc(C(=O)O)c4c3CCC4)cc2C(=O)N(C)c2cccnc21,C8166,RT-K103N Y181C,p24,,1
Cc1cc(NS(=O)(=O)CC2CCCCC2)c(C)c(C(OC(C)(C)C)C(=O)O)c1-c1ccc2c(c1)CCCO2,MT-4,N222K,p24 / luminescence,NL4-3,1
CCN1c2ncc(CCOc3ccc(C(=O)O)c4ccccc34)cc2C(=O)N(C)c2ccc(F)nc21,C8166,RT-K103N Y181C,p24,,1
CC(C)OC(=O)c1cc(NC(=S)OCC2(C)COC2)ccc1Cl,CEM,RT-L100I,syncytia,,>1.07
Cc1sccc1C(=O)Nc1ccc(Cl)c(OCC=C(Cl)Cl)c1,CEM,RT-L100I,syncytia,TIBO R82150-resistant (RT L100I),5.89
C=CCOc1cc(NC(=S)c2sccc2C)ccc1Cl,CEM + CEM-SS,RT-T139I,cytopathic effect / XTT,CALO(RT-T139I),2.125
CCc1cc(C#N)cc(C(=O)c2cc(Cl)ccc2OCC(=O)Nc2ccc(S(N)(=O)=O)cc2C)c1,HeLa + HELA CD4+,RT-V106I,β-galactosidase,HXB2,~1
Cc1occc1C(=S)Nc1ccc(Cl)c(SCC=C(Cl)Cl)c1,CEM,RT-Y181C,syncytia,Pyridone-resistant (RT Y181C),26
C[C@@H]1CCO[C@H]2Cn3cc(C(=O)NCc4ccc(F)cc4F)c(=O)c(O)c3C(=O)N12,CBMC,G118R,RT activity,NL4-3,6.7
CC(C)[C@H](NC(=O)OCc1ccccn1)C(=O)N[C@@H](Cc1ccccc1)[C@@H](O)C[C@H](Cc1ccccc1)NC(=O)OCc1cccnc1,MT-4,PR-V82T,p24,NL4-3,1.875
CC(=O)OCCOC(=O)c1cc(NC(=S)OC(C)C)ccc1Cl,CEM,RT-L100I,syncytia,,≥10
CCOCn1c(Cc2ccccc2)c(CC)c(=O)[nH]c1=O,CEM,RT-E138K,syncytia,IIIB,5.625
CCN1c2ncc(CCOc3ccc(C(=O)O)c4c3CCN(C(=O)OC)C4)cc2C(=O)N(C)c2cccnc21,C8166,RT-V106A,p24,,1–10
CC=CCOc1cc(NC(=S)c2ccoc2C)ccc1OC,CEM + CEM-SS,RT-L100I,cytopathic effect / XTT,NL4-3,20
CC(C)=CCOc1cc(NC(=S)c2ccoc2C)ccc1Cl,CEM + CEM-SS,RT-T139I,cytopathic effect / XTT,Calanolide A-resistant (RT T139I),4
CC(C)OC(=O)c1cc(NC(=S)OC(C)C)ccc1Cl,CEM,RT-L100I,syncytia,IIIB,71
CC(C)OC(=S)Nc1ccc(Cl)c(C(=O)OC(C)(C)C)c1,CEM,RT-E138K,syncytia,,35.1
Cc1cc(S(N)(=O)=O)ccc1NC(=O)COc1ccc(Cl)cc1C(=O)c1cc(F)cc(C#N)c1,HeLa + HELA CD4+,RT-K103N G190A,β-galactosidase,HXB2 (RT-K103N G190A) Recombinant,~10
C=C(Cl)COc1cc(NC(=S)c2ccsc2C)ccc1C#N,CEM,RT-V106A,syncytia,Nevirapine-resistant isolate (RT V106A),6.67
O=C1Nc2ccc(F)c(F)c2[C@@](C#CC2CC2)(C(F)(F)F)N1,,RT-Y188C,,,<13.3
CCOC(=O)c1cc(NC(=S)OC(C)C)ccc1C,CEM,RT-L100I,syncytia,,2260
CCc1c(Sc2ccccc2)n(COCc2ccccc2)c(=S)[nH]c1=O,CEM,RT-Y188H,syncytia,IIIB,≥8330
Cc1occc1C(=S)Nc1ccc(Cl)c(/C=N/OC(C)(C)C)c1,CEM + CEM-SS,RT-D67N K70R Y181C T215Y K219Q,cytopathic effect / XTT,4XAZT/Y181C (RT D67N K70R Y181C T215Y K219Q),2.5
CC(C)OC(=S)Nc1ccc(Cl)c(C(=O)SC(C)C)c1,CEM,RT-L100I,syncytia,,27.6
Cc1cc(S(N)(=O)=O)ccc1NC(=O)COc1ccc(Cl)cc1C(=O)c1cc(Cl)cc(C#N)c1,HeLa + HELA CD4+,RT-K103N V108I,β-galactosidase,HXB2,~1
Cc1occc1C(=S)Nc1ccc(Cl)c(/C=N/OC(C)(C)C)c1,CEM,RT-Y188L,syncytia,IIIB,>14
CCN1c2ncc(CCOc3ccc(S(=O)(=O)NCC(=O)O)c4ccccc34)cc2C(=O)N(C)c2cccnc21,C8166,RT-K103N Y181C,p24,,1
CC[C@@H](C)OC(=S)Nc1ccc(Cl)c(C(=O)OC(C)C)c1,CEM,RT-V106A,syncytia,,1.98
COc1ccc(NC(=S)c2ccsc2C)cc1OCC=C(Cl)Cl,CEM,RT-Y188H,syncytia,HEPT-resistant (RT Y188H),400
CC(C)O/N=C/c1cc(NC(=S)OC(C)C)ccc1Cl,CEM,RT-K101E,,IIIB,4.1
CC(C)=CCOc1cc(NC(=S)c2ccsc2C)ccc1Cl,CEM + CEM-SS,RT-A98G,cytopathic effect / XTT,NL4-3 (RT A98G),1.5
C=CCOC(=O)c1cc(NC(=S)OC(C)C)ccc1Cl,CEM,RT-V106A,syncytia,,2.5
C/C=C/CSc1cc(NC(=S)c2ccsc2C)ccc1Cl,CEM + CEM-SS,RT-L100I,p24,NL4-3,28
CC(C)OC(=O)c1cc(NC(=S)OC(C)C)ccc1Cl,CEM,RT-K101E,,IIIB,2.8
Cc1ccc(C2CC2)c(-c2ccc3c(c2)CCCO3)c1[C@H](OC(C)(C)C)C(=O)O,MT-4,NRTI/NNRTI resistant NLAY351717,luminescence,NL4-3,2
CC(C)OC(=O)c1cc(NC(=O)OCC2CC2)ccc1Cl,CEM,RT-Y181C,syncytia,,18.9
CCc1c(Sc2ccccc2)n(COCc2ccccc2)c(=O)[nH]c1=O,CEM,RT-K103N,syncytia,IIIB TIBO R82913-resistant (RT K103N),410
C#CCOC(=O)c1cc(NC(=S)OC(C)C)ccc1Cl,CEM,RT-V106A,syncytia,,≥34.5
CCc1c(Cc2cc(C)cc(C)c2)n(COCCO)c(=O)[nH]c1=O,CEM,RT-L100I,syncytia,IIIB (TIBO 82150) (RT-L100I),6.07
CCCOC(=S)Nc1ccc(Cl)c(C(=O)OC(C)C)c1,CEM,RT-L100I,syncytia,,54.1
Cc1occc1C(=S)Nc1ccc(Cl)c(C(=O)OC(C)C)c1,CEM + CEM-SS,RT-D67N K70R T215Y K219Q,cytopathic effect / XTT,4xAZT(RT-D67N K70R T215Y K219Q),1
CSC(=Nc1ccc(Cl)c(C(=O)OC(C)C)c1)OC(C)C,CEM,RT-E138K,syncytia,,>1
COc1ccc(NC(=S)c2ccoc2C)cc1OCC=C(Cl)Cl,CEM,RT-L100I,syncytia,TIBO R82150-resistant (RT L100I),6.25
C/C=C/COc1cc(NC(=S)OC(C)C)ccc1Cl,CEM,RT-K101E,,IIIB,3.3
CCC(=O)c1ccc(F)c([C@@H]2C[C@@H]2NC(=O)Nc2ccc(C#N)cn2)c1O,TZM-bl,NNRTI-resistant (RT P236L),β-galactosidase / luminescence,LAI,0.9
CSCCOC(=S)Nc1ccc(Cl)c(C(=O)OC(C)C)c1,CEM,RT-V106A,syncytia,,12.2
O=C1Nc2ccc(Cl)cc2[C@@](/C=C/C2CC2)(C(F)(F)F)N1,,RT-K103N P225H,,,75